Anti-infective test results gathered from many reports (values: NIAID ChemDB through PubChem).

All rows: cytotoxicity tests; cell line: HepG2 2.2.15; endpoint: CC50

CCn is the concentration with n% toxicity to the cells. An empty or dashed field is not shown. Conditions beyond the fields shown may differ between rows.

{"SMILES": "CC(C)OC(=O)[C@H](C)N[P@](=O)(CO[C@H](C)Cn1cnc2c(N)ncnc21)Oc1ccccc1", "read by": "MTT", "value": "37 µM"}
{"SMILES": "OC[C@H]1NC[C@H](O)[C@@H](O)[C@@H]1O", "value": ">5000 µM"}
{"SMILES": "Nc1ncnc2c1ncn2C[C@@H](CO)OCP(=O)(O)O", "value": ">100 µM"}
{"SMILES": "CC1(C)C2CC[C@@]3(C)C4CC[C@@]5(C)CC[C@](C)(C(=O)O)C[C@H]5C4=CC(=O)C3[C@@]2(C)CC[C@@H]1O[C@@H]1O[C@H](C(=O)O)[C@@H](O[C@@H]2O[C@H](C(=O)O)[C@@H](O)[C@H](O)[C@H]2O)[C@H](O)[C@H]1O", "value": ">100 µM"}
{"SMILES": "Nc1nc2c(ncn2CC2(OCP(=O)(O)O)CC2)c(=O)[nH]1", "value": ">1000 µM"}
{"SMILES": "C[C@@H]1CCC=C2C(=O)C[C@@H](O)[C@@H](C(C)(C)O)[C@]21C", "value": ">100 µM"}
{"SMILES": "OC[C@@H]1[C@@H](O)[C@H](O)[C@@H](O)CN1CCCCC1CCCCC1", "value": "500 µM"}
{"SMILES": "O=c1cc(-c2ccccc2)oc2cc(O)c(O)c(O)c12", "value": ">100 µM"}
{"SMILES": "COC(=O)CC(O)(CCCC(C)(C)O)C(=O)O[C@@H]1C(OC)=C[C@]23CCCN2CCc2cc4c(cc2[C@@H]13)OCO4", "value": "0.5 µM"}
{"SMILES": "Nc1ncnc2c1ncn2CCOCP(=O)(O)O", "value": ">100 µM"}
{"SMILES": "CCCCCCCCCN1C[C@H](O)[C@@H](O)[C@H](O)[C@H]1CO", "value": "175 µM"}
{"SMILES": "O=C(O)[C@H]1O[C@@H](Oc2cc3oc(-c4ccccc4)cc(=O)c3c(O)c2O)[C@H](O)[C@@H](O)[C@@H]1O", "value": ">100 µM"}
{"SMILES": "CCC(C)CCC[C@@H](C)CCN1C[C@H](O)[C@@H](O)[C@H](O)[C@H]1CO", "value": "100 µM"}
{"SMILES": "O=C(N[C@H](CO)Cc1ccccc1)/C(NC(=O)c1ccc(Cl)cc1Cl)=C(/Br)c1ccccc1", "read by": "MTT", "value": ">100 µM"}
{"SMILES": "CC12CCC(OC(=O)CCC(=O)O)CC1CCC1C2CCC2(C)C(c3ccc(=O)oc3)CCC12O", "value": ">100 µM"}

Repeating the final 2 entries:

SMILES,read by,value
O=C(N[C@H](CO)Cc1ccccc1)/C(NC(=O)c1ccc(Cl)cc1Cl)=C(/Br)c1ccccc1,MTT,>100 µM
CC12CCC(OC(=O)CCC(=O)O)CC1CCC1C2CCC2(C)C(c3ccc(=O)oc3)CCC12O,,>100 µM